Compound potency records, mixed from different reports. Data source: NIAID ChemDB in PubChem.

Shared fields: tests in culture; agent: Mycobacterium tuberculosis

Percent inhibition refers to the dose given; in toxicity tests it is the harm to the cells. Conditions beyond the fields shown may differ between rows. A number after MIC or MFC names an inhibition level or a share of isolates. Blank or dashed fields: not listed here. MIC bound: limit read from a one-dose screen. For "inactive" no cut-off is given.

SMILES,endpoint,changes,strain,cells,setting,read by,tested at,value
O=C(Oc1ccc(Cl)cc1C(=O)Nc1ccc(Cl)c(Cl)c1)c1cnccn1,MIC,,extensively drug resistant Praha 131,,14 d,,,0.5 µM
CO[C@H]1/C=C/O[C@@]2(C)Oc3c(C)c(O)c4c(O)c(cc(N=NC(=N)N)c4c3C2=O)NC(=O)/C(C)=C\C=C\[C@H](C)[C@H](O)[C@@H](C)[C@@H](O)[C@@H](C)[C@H](OC(C)=O)[C@@H]1C,MIC,,H37Rv,,,,,0.001 µg/mL
CCNC1C2(CCCCC2)NC(=O)C12CCCCC2,MIC bound,,H37Rv,,,BACTEC,,>12.5 µg/mL
O=[N+]([O-])c1ccccc1C=Nc1ccc(O)cc1,inhibition,,H37Rv,,,,100 µg/mL,inactive
CCOC(=O)Nc1cc2c(c(N)n1)N=C(CN(C)c1ccc(OC)cc1)CN2,MIC,,H37Rv,,,,,>12.5 µg/mL
S=C(S)NCCNC(=S)S,inhibition,,H37Rv,,,BACTEC,12.5 µg/mL,-16%
CCOC(=O)c1cc(-c2cccc(N)c2)on1,MIC,,H37Rv,,,low oxygen,,41.5 µM
O=C(c1cn(-c2cccc3ccccc23)nn1)c1ccc(Cl)cc1Cl,inhibition,,H37Rv,,,,12.5 µg/mL,0%
Cc1ccc2nc(SCC(=O)N/N=C/c3ccccc3[N+](=O)[O-])n(-c3ccccc3)c(=O)c2c1,MIC,,H37Rv,,,,,>6.25 µg/mL
N/C(=N\NC(CC(=O)c1cccc(Cl)c1)c1ccncc1)c1ccccn1,MIC,,H37Rv,,,,,4 µg/mL
CC1CCCCN1c1cncc(C(=O)NN)n1,MIC,,SP 607,,,,,500 µg/mL
Cc1cc(=O)[nH]c(O)c1C(=O)CC(=O)c1ccccc1,MIC bound,,H37Rv,,,,,>6.25 µg/mL
CCOC(=O)Nc1nc(N)c2c(n1)NCCC(c1ccccc1)=N2,MIC,,H37Rv,,,,,6.25 µg/mL
N/C(=N\NC(CC(=O)c1ccccc1)c1cccnc1)c1ccccn1,MIC,,H37Rv,,,,,16 µg/mL
CCOC1Oc2ccccc2C(=O)/C1=C\Nc1ccc(C(=O)O)c(O)c1,MIC,,H37Rv,,,,,25 µg/mL
O=C1c2cccc([N+](=O)[O-])c2C(=O)c2c1oc1ccc3ccccc3c21,MIC bound,,H37Rv,,,BACTEC,,≤12.5 µg/mL
COc1cc(Cc2cnc(N)nc2N)cc(OC)c1OC,MIC,,H37Rv,,,,,>100 µM
NNC(=O)c1ccncc1,MIC,,H37Rv,,,visual reading / absorbance,,6.2 µM
NC(=S)c1cncc(-n2cncn2)n1,MIC,,Ethionamide-resistant,,,,,500 µg/mL
NC[C@H]1O[C@H](O[C@H]2[C@H](O)[C@@H](O[C@H]3O[C@H](CO)[C@@H](O)[C@H](N)[C@H]3O)[C@H](N)C[C@@H]2N)[C@H](N)[C@@H](O)[C@@H]1O,MIC,Kanamycin-resistant rKM,H37Rv,,,resazurin,,>10.2 µM
Cc1cc(O)c(C(C)C)cc1N1C(=O)C(Cl)C1c1ccccc1Cl,inhibition,,H37Rv,,,,100 µg/mL,inactive
CN[C@@H]1[C@H](O[C@H]2[C@H](O[C@H]3[C@H](O)[C@@H](O)[C@H](N=C(N)N)[C@@H](O)[C@@H]3N=C(N)N)O[C@@H](C)[C@]2(O)C=O)O[C@@H](CO)[C@H](O)[C@H]1O,MIC,Streptomycin-resistant (rSM),H37Rv,,,resazurin,,>7.9 µM
CCCCN(CCCC)CCCOC(=O)c1ccc2oc3ccc(C(=O)OCCCN(CCCC)CCCC)cc3c2c1,MIC,,H37Rv,VERO,,BACTEC,,6.25 µg/mL
Cc1cc(O)c(C(C)C)cc1N1C(=O)C(C)SC1c1ccc(O)cc1,inhibition,,H37Rv,,,,100 µg/mL,inactive
Cc1ccc2nc(SCC(=O)N/N=C/C(=O)c3ccc([N+](=O)[O-])o3)n(-c3ccccc3)c(=O)c2c1,MIC,,H37Rv,,,,,>6.25 µg/mL
Cc1cc(O)c(C(C)C)cc1N1C(=O)C(C)SC1c1ccoc1,inhibition,,H37Rv,,,,100 µg/mL,inactive
COc1cccc(/C=N/NC(=O)CSc2nc3ccc(C)cc3c(=O)n2-c2ccccc2)c1,MIC,,H37Rv,,,,,>6.25 µg/mL
NC(=O)c1cncc(-n2cncn2)n1,MIC,,H37Rv,,,,,1000 µg/mL
O=c1[nH]c2ccc(CC(=S)N3CCN(c4ccccc4)CC3)cc2s1,inhibition,,H37Rv,,,BACTEC,6.25 µg/mL,38%
CCOC(=O)c1cn(O)nn1,inhibition,,H37Rv,,,,12.5 µg/mL,0%
CC(=O)OC[C@H]1O[C@@H](O[C@@H]([C@H](OC(C)=O)[C@H](C=O)OC(C)=O)[C@@H](COC(C)=O)OC(C)=O)[C@H](OC(C)=O)[C@@H](OC(C)=O)[C@H]1OC(C)=O,MIC bound,,H37Rv,,,,,>6.25 µg/mL
Cc1ccc2nc(SCC(=O)N/N=C/c3ccc([N+](=O)[O-])cc3)n(-c3ccccc3)c(=O)c2c1,MIC,,H37Rv,,,,,>6.25 µg/mL
O=C(OCCNc1ccccc1)Oc1c(Cl)cc(Cl)c(Cl)c1[N+](=O)[O-],MIC,,H37Rv,,,,,8 µg/mL
Cc1cccc(C(=O)CC(N/N=C(\N)c2ccccn2)c2cccnc2)c1,MIC,,H37Rv,,,,,2 µg/mL
CCOC(=O)c1cc(-c2ccc(CO)cc2)on1,MIC,,H37Rv,,,low oxygen,,48.7 µM
O=C(Oc1ccc(Cl)cc1)c1cnccn1,MIC,,331/88,,14 d,,,250 µM
O=C(Oc1ccc(Cl)cc1)c1cn(-c2ccccc2)nn1,MIC,,H37Rv,,,,,>12.5 µg/mL
Cc1c2cc(O)c(=O)cc-2oc2cc(O)c(O)cc12,MIC90,,H37Rv,,,broth dilution,,62 µg/mL
O=C(Oc1ccc(Cl)cc1C(=O)Nc1ccc(C(F)(F)F)cc1)c1cnccn1,MIC,,multidrug resistant 7357/1998,,14 d,,,0.25 µM
CC12C[C@H]3OC(=O)[C@@H]1COC14OC5([C@H]2C1=O)[C@@](O)(CC[C@H]1[C@H]4CC=C2CC=CC(=O)[C@@]21C)C(=O)O[C@@]35C,MIC,,H37Rv,,,,,>128 µg/mL
N/C(=N\NC(CC(=O)c1ccc(Cl)c(Cl)c1)c1cccnc1)c1ccccn1,MIC,,H37Rv,,,,,16 µg/mL
CCCCCCOC1Oc2ccc(Cl)cc2C(=O)/C1=C\Nc1ccc(C(=O)O)c(O)c1,MIC,,H37Rv,,,,,50 µg/mL
CCOC(=O)c1cc(-c2cc(C(F)(F)F)cc(C(F)(F)F)c2)on1,MIC,,H37Rv,,,resazurin,,0.7 µM
CCNC(=O)c1cc(NC(=O)c2ccc(C(=O)Nc3cc(C(=O)NCC)cc(C4=NCCN4)c3)cc2)cc(C2=NCCN2)c1,MIC bound,,H37Rv,,,resazurin,,>6.25 µg/mL
CCOC(=O)c1cn(-c2ccccc2)nn1,inhibition,,H37Rv,,,,12.5 µg/mL,0%
CO[C@H]1/C=C/O[C@@]2(C)Oc3c(C)c(O)c4c(O)c(c(C=O)c(O)c4c3C2=O)NC(=O)/C(C)=C\C=C\[C@H](C)[C@H](O)[C@@H](C)[C@@H](O)[C@@H](C)[C@H](OC(C)=O)[C@@H]1C,MIC,,H37Rv,,,,,0.1 µg/mL
NC(=S)c1cncc(-n2ccnc2)n1,MIC,,H37Rv,,,,,250 µg/mL
O=[N+]([O-])c1ccc(N=Nc2c(Cl)c(O)c3ccccc3c2O)nc1,MIC,,RMP-R,,,,,12.5 µg/mL
CCOC(=O)c1cc(CNc2cccc3ccccc23)on1,MIC,,H37Rv,,,resazurin,,3.4 µM
CC[C@@H](C)[C@H](OC(=O)/C=C/c1ccccc1)[C@H](C)[C@H](O)C/C=C/C=C/C(N)=O,MIC,,,,,,,25 µg/mL
CO[C@H]1/C=C/O[C@@]2(C)Oc3c(C)c(O)c4c(O)c(c(CN5CCCC5)c(O)c4c3C2=O)NC(=O)/C(C)=C\C=C\[C@H](C)[C@H](O)[C@@H](C)[C@@H](O)[C@@H](C)[C@H](O)[C@@H]1C,MIC,,H37Rv,,,,,0.1 µg/mL
N/C(=N\NC(CC(=O)c1cccc(Cl)c1)c1ccccn1)c1ccccn1,MIC,,H37Rv,,,,,16 µg/mL
Cc1ccc2nc(SCC(=O)N/N=C/c3ccc(F)cc3)n(-c3ccccc3)c(=O)c2c1,MIC,,H37Rv,,,,,>6.25 µg/mL
C/C(=N\NC(=S)SCc1ccccc1)c1ccccn1,MIC,,H37Rv,,,BACTEC,,64 µg/mL
O=C(Oc1ccc(Cl)cc1C(=O)Nc1cccc(C(F)(F)F)c1)c1cnccn1,MIC,,extensively drug resistant Praha 131,,21 d,,,2 µM
Cc1cccc(/C=C2\Cc3ccccc3C2=O)c1,inhibition,,H37Rv,,,broth dilution / resazurin,12.5 µg/mL,78%
O=C(CNC(=O)c1ccccc1)N/N=C/c1cccc2ccccc12,MIC bound,,H37Rv,,,BACTEC,,>12.5 µg/mL
CO[C@H]1/C=C/O[C@@]2(C)Oc3c(C)c(O)c4c(O)c(c(/C=N/N5CCN(C)CC5)c(O)c4c3C2=O)NC(=O)/C(C)=C\C=C\[C@H](C)[C@H](O)[C@@H](C)[C@@H](O)[C@@H](C)[C@H](OC(C)=O)[C@@H]1C,MIC,,CSU H37Rv,,,BACTEC,,0.049 µg/mL
COC(=O)c1ccc(/C=C(\c2ccc([N+](=O)[O-])o2)S(=O)(=O)c2ccc(NC(C)=O)cc2)o1,MIC,,H37Rv,,,BACTEC,,≥12.5 µg/mL
CCOC(=O)c1cc(CNc2ccc(OC(F)(F)F)cc2)on1,MIC,,H37Rv,,,low oxygen,,9.8 µM
CN(C)P1(N(C)C)=NP(N(C)C)(N(C)C)=NP(N(C)C)(N(C)C)=N1,MIC,,H37Rv,,,BACTEC,,≥128 µg/mL
N/C(=N\NC(CC(=O)c1ccc(Cl)c(Cl)c1)c1ccncc1)c1ccccn1,MIC,,H37Rv,,,,,2 µg/mL
COc1cc2c(cc1OC)C13CCN4C(=O)C(=O)C(CC41)C1C(OCC(=O)O)CC(=O)N2C13,inhibition,,H37Rv,,,BACTEC,12.5 µg/mL,19%
CC(C)C(=O)c1cn(-c2ccc(Cl)cc2)nn1,MIC,,H37Rv,,,,,>12.5 µg/mL
CCOC1Oc2ccccc2C(=O)/C1=C\Nc1ccc(O)c(C(=O)O)c1,MIC,,H37Rv,,,,,>100 µg/mL
N#Cc1nc(CC(=O)c2ccccn2)c(CC(=O)c2ccccn2)nc1C#N,inhibition,,H37Rv,,,BACTEC,12.5 µg/mL,36%
O=[N+]([O-])c1ccccc1-c1nnc(/N=C\c2ccco2)s1,MIC,,H37Rv,,,resazurin,,12.5 µg/mL
N/C(=N\NC(CC(=O)c1ccc(-c2ccccc2)cc1)c1cccnc1)c1ccccn1,MIC,,H37Rv,,,,,32 µg/mL
Cc1cc(O)c(C(C)C)cc1N1C(=O)CSC1c1cccc(O)c1,inhibition,,H37Rv,,,,100 µg/mL,inactive
Cc1ccc(/C=C2\Cc3ccccc3C2=O)cc1,inhibition,,H37Rv,,,broth dilution / resazurin,12.5 µg/mL,75%
CCC[CH2][Sn]([Cl])([Br])[CH2]CCC.c1cnc2c(c1)ccc1cccnc12,MIC,,H37Rv,VERO,,,,3.13 µg/mL
O=C(c1cn(-c2ccc(Cl)cc2)nn1)c1ccc(Cl)cc1Cl,MIC,,H37Rv,,,,,>12.5 µg/mL
N[C@H](C(=O)O)[C@H]1ON=C(Cl)[C@@H]1O,MIC,,KM-R,,,,,12.5 µg/mL
CCOC1Oc2ccccc2C(=O)/C1=C\Nc1cccc(C(=O)O)c1O,MIC,,H37Rv,,,,,>100 µg/mL
CC(=O)O[C@H]1CC[C@]2(C)C3CC[C@]4(C)C([C@H](C)CCCC(C)C)CCC4[C@]3(/C=N/O)n3c(=O)n(-c4ccccc4)c(=O)n3[C@]2(/C=N/O)C1,MIC bound,,H37Rv,,,resazurin,,>6.25 µg/mL
O=C(Oc1ccc(Cl)cc1C(=O)Nc1ccc(Cl)cc1)c1cnccn1,MIC,,H37Rv 331/88,,21 d,,,2 µM
COc1cccc(/C=C2\CCc3ccccc3C2=O)c1,inhibition,,H37Rv,,,broth dilution / resazurin,12.5 µg/mL,0%
CCN(CC)C(=O)COc1cc2c(O)c3c(O)c(C)c4c(c13)C(=O)[C@@](C)(O/C=C/[C@H](OC)[C@@H](C)[C@@H](OC(C)=O)[C@H](C)[C@H](O)[C@H](C)[C@@H](O)[C@@H](C)/C=C/C=C(/C)C(=O)N2)O4,MIC,,H37Rv,,,,,0.1 µg/mL
O=C(O)[C@@H]1C[C@@H](O)CCN1,inhibition,,H37Rv,,,BACTEC,12.8 µg/mL,10%
O=C1/C(=C/c2cccc(Br)c2)CCCc2ccccc21,inhibition,,H37Rv,,,broth dilution / resazurin,12.5 µg/mL,63%

Again, the opening 11 rows:

SMILES | endpoint | changes | strain | cells | setting | read by | tested at | value
O=C(Oc1ccc(Cl)cc1C(=O)Nc1ccc(Cl)c(Cl)c1)c1cnccn1 | MIC |  | extensively drug resistant Praha 131 |  | 14 d |  |  | 0.5 µM
CO[C@H]1/C=C/O[C@@]2(C)Oc3c(C)c(O)c4c(O)c(cc(N=NC(=N)N)c4c3C2=O)NC(=O)/C(C)=C\C=C\[C@H](C)[C@H](O)[C@@H](C)[C@@H](O)[C@@H](C)[C@H](OC(C)=O)[C@@H]1C | MIC |  | H37Rv |  |  |  |  | 0.001 µg/mL
CCNC1C2(CCCCC2)NC(=O)C12CCCCC2 | MIC bound |  | H37Rv |  |  | BACTEC |  | >12.5 µg/mL
O=[N+]([O-])c1ccccc1C=Nc1ccc(O)cc1 | inhibition |  | H37Rv |  |  |  | 100 µg/mL | inactive
CCOC(=O)Nc1cc2c(c(N)n1)N=C(CN(C)c1ccc(OC)cc1)CN2 | MIC |  | H37Rv |  |  |  |  | >12.5 µg/mL
S=C(S)NCCNC(=S)S | inhibition |  | H37Rv |  |  | BACTEC | 12.5 µg/mL | -16%
CCOC(=O)c1cc(-c2cccc(N)c2)on1 | MIC |  | H37Rv |  |  | low oxygen |  | 41.5 µM
O=C(c1cn(-c2cccc3ccccc23)nn1)c1ccc(Cl)cc1Cl | inhibition |  | H37Rv |  |  |  | 12.5 µg/mL | 0%
Cc1ccc2nc(SCC(=O)N/N=C/c3ccccc3[N+](=O)[O-])n(-c3ccccc3)c(=O)c2c1 | MIC |  | H37Rv |  |  |  |  | >6.25 µg/mL
N/C(=N\NC(CC(=O)c1cccc(Cl)c1)c1ccncc1)c1ccccn1 | MIC |  | H37Rv |  |  |  |  | 4 µg/mL
CC1CCCCN1c1cncc(C(=O)NN)n1 | MIC |  | SP 607 |  |  |  |  | 500 µg/mL